From publication PMC10526447 (Biomolecules, 2023)

Test system: CoVs

For `CC(C)C[C@@H]1NC(=O)[C@H](Cc2c[nH]cn2)NC(=O)[C@H](Cc2c[nH]c3ccccc23)NC(=O)[C@H](C)NC(=O)[C@@H](NC(=O)[C@@H](N)CC(=O)O)CSSC[C@@H](C(=O)N[C@H](C(=O)O)[C@@H](C)O)NC(=O)[C@H](Cc2c[nH]c3ccccc23)NC(=O)[C@H](C(C)C)NC(=O)[C@H](CC(C)C)NC(=O)[C@H](CCC(=O)O)NC(=O)CNC1=O` [IBP], the IC50 was > 50 µM.
